Measured values from several laboratories, pooled; numbers as filed in NIAID ChemDB.

All rows: tests in culture; species: Mycobacterium tuberculosis

An empty or dashed field is not shown.

compound	dose	measure	read by	mutations	strain	value
COc1cc(/C=C/C(=O)O)cc(Oc2ccc(/C=C/C(=O)O)cc2)c1OC(C)=O		MIC			H37Rv	125 µg/mL
CCOC(=O)Nc1cc2nc(C)c(-c3ccc(O)cc3)nc2c(N)n1	12.5 µg/mL	inhibition			H37Rv	8%
C[C@@H]1CN(c2c(F)c(N)c3c(=O)c(C(=O)O)cn(C4CC4)c3c2F)C[C@H](C)N1		EC50			TN1626 (WILD TYPE)	0.035 µg/mL
COc1nc2ccc(Br)cc2cc1C(c1ccccc1)C(O)(CCN1CCOCC1)c1ccccc1		MIC90			H37Rv	54.75 µg/mL
COc1cc2c(C)c[n+]3cc4cc5c(OC)c(OC)ccc5cc4cc3c2cc1OC.O=C([O-])CS(=O)(=O)O		MIC bound	BACTEC		H37Rv	>12.5 µg/mL
COC(=O)Cc1cc(I)c(Oc2cc(C=O)cc(OC)c2OC(C)=O)c(I)c1		MIC			H37Rv	31.25–62.5 µg/mL
CCOC(=O)c1c(N)sc2c1CCCC2		MIC	resazurin		H37Rv	>400 µM
COC(=O)c1sc(-c2ccccn2)nc1OCc1cnnn1-c1cc2ccc(N)cc2oc1=O		MIC	resazurin		H37Rv	6.5 µM
O=C1NC(Nc2ccccc2)=N/C1=C\c1c(Cl)cccc1Cl		MIC			H37Rv	>6.25 µg/mL
O=C(N/N=C/c1ccc(F)cc1)c1c[nH]c2ccc(Cl)cc2c1=O		MIC	resazurin		RCMB 010126	12.48 µg/mL
CCc1cc(C(N)=S)ccn1	10 µg/mL	inhibition	agar		25 strains	100%
O=Cc1sc(-c2cccnc2)nc1OCc1cnnn1-c1cc2ccc(O)cc2oc1=O		MIC	resazurin		H37Rv	27.93 µM
CC(C(=O)N1C(=O)N(C(=O)C(C)C(O)c2ccccc2)C(c2ccccc2)C1c1ccccc1)C(O)c1ccccc1		MIC bound	BACTEC		H37Rv	≤12.5 µg/mL
CN1CCN(c2ccc(NCc3ccc(-c4ccccc4)cc3)cc2)CC1		MIC			103471	4 µg/mL
C/C(=N\Nc1ncc(/C(C)=N/N=C(N)N)c(C)n1)c1cnc(NN)nc1C		MIC bound	BACTEC		H37Rv	>12.5 µg/mL
CCCCCCCCCCCCNC(CC(=O)O)[C@H]1O[C@@H]2OC(C)(C)O[C@@H]2[C@H]1OC		MIC			H37Rv	50 µg/mL
Cc1ccc(S(=O)(=O)n2oc(=O)c(Cc3ccccc3)c2N)cc1	6.25 µg/mL	inhibition	resazurin		H37Rv	20%
O=C1NC(Nc2ccccc2)=N/C1=C\c1ccccc1Cl	12.5 µg/mL	inhibition			H37Rv	93%
COc1cc(/C=C/[N+](=O)[O-])cc(Oc2ccc(CC(=O)O)cc2)c1O		MIC			H37Rv	500 µg/mL
COC(=O)c1sc(-c2cccnc2)nc1OCc1cnnn1-c1cc2ccc(N)cc2oc1=O		MIC	resazurin		H37Rv	13.12 µM
CN1CCN(c2cc3c(cc2F)c(=O)c(C(=O)O)cn3-c2ccc(F)cc2)CC1		MIC50			27 strains	4 µg/mL
COc1nc2ccc(Br)cc2cc1C(c1ccccc1)C(O)(CCN(C)C)c1c(F)cccc1F		MIC90			H37Rv	43.01 µg/mL
O=C1NC(=NCc2ccccc2)N/C1=C\c1ccc(Cl)cc1Cl		MIC			H37Rv	>12.5 µg/mL
COc1cc(CC#N)cc(Oc2ccc(C(=O)O)cc2)c1OC		MIC			H37Rv	125–250 µg/mL
COc1ccc(/C=N/NC(=O)c2c[nH]c3cc(Cl)ccc3c2=O)cc1OC		MIC	resazurin		RCMB 010126	24.96 µg/mL
CC(C)c1ccc(/C=C2/NC(=S)NC2=O)cc1	6.25 µg/mL	inhibition	BACTEC		H37Rv	89%
NNC(=O)c1ccncc1		EC50	fluorescence / absorbance		H37Rv	0.47 µM
CCN(CC)CCCC(O)(c1cccc2ccccc12)C(c1ccccc1)c1cc2cc(Br)ccc2nc1OC		MIC90			H37Rv	47.47 µg/mL
CO[C@@H]1[C@H]2OC(C)(C)O[C@H]2O[C@@H]1C(N)CC(=O)O		MIC			H37Rv	50 µg/mL
CC(=O)O[C@H]1CC[C@]2(C)C3CC[C@]4(C)C([C@H](C)CCCC(C)C)CCC4[C@]3(/C=N/O)n3c(=O)n(-c4ccccc4)c(=O)n3[C@]2(/C=N/O)C1	6.25 µg/mL	inhibition	resazurin		H37Rv	51%
O=C1NC(=NCc2ccc(F)cc2)N/C1=C\c1c(Cl)cccc1Cl		MIC			H37Rv	>12.5 µg/mL
CCCCCCCCCCCCNC(CC(=O)OCC)[C@H]1O[C@@H]2OC(C)(C)O[C@@H]2[C@H]1OCc1ccccc1		MIC			H37Ra	>25 µg/mL
CCCCN(CCCC)CCNc1ccc(C)c2sc3cc(C)ccc3c(=O)c12		MIC	BACTEC		H37Rv	≥12.5 µg/mL
COc1ccc(CC(=S)N2CCOCC2)cc1Br		MIC			H37Rv	31.25 µg/mL
CO[C@H]1/C=C/O[C@@]2(C)Oc3c(C)c(O)c4c(O)c(c(/C=N/N5CCN(C)CC5)c(O)c4c3C2=O)NC(=O)/C(C)=C\C=C\[C@H](C)[C@H](O)[C@@H](C)[C@@H](O)[C@@H](C)[C@H](OC(C)=O)[C@@H]1C		MIC	low oxygen		H37Rv	0.048 µM
N#CCC(=O)N/N=C(\CC1(O)C(=O)Nc2c(Cl)cc(Cl)cc21)c1ccccc1	12.5 µg/mL	inhibition	BACTEC		H37Rv	-10%
COc1nc2ccc(Br)cc2cc1C(c1ccccc1)C(O)(CCCN1CCCC1)c1ccc2ccccc2c1		MIC90			H37Rv	47.31 µg/mL
O=C1NC(=S)N/C1=C\c1c(Cl)cccc1Cl	6.25 µg/mL	inhibition	BACTEC		H37Rv	0%
CCOC(=O)c1c(N)sc2c1CCN(CC)C2		MIC	resazurin		H37Rv	>300 µM
CNn1cc(C(=O)O)c(=O)c2cc(F)c(N3CCN(C)CC3)cc21		MIC50			22 strains	4 µg/mL
O=[N+]([O-])c1ccccc1Oc1ccccc1O		MIC			H37Rv	31.25–62.5 µg/mL
Cc1cccc(/C=C2/NC(=S)NC2=O)c1	6.25 µg/mL	inhibition	BACTEC		H37Rv	88%
S=C(S)Nc1ccc(Cl)cc1		MIC			TAC-R	12.5 µg/mL
CCC1CN(c2cc3c(cc2F)c(=O)c(C(=O)O)cn3C2CC2)CCN1		MIC			TN1626 (WILD TYPE)	0.3 µg/mL
O=C(Nc1ccccc1N1CCSCC1)c1ccc(Cl)cc1		MIC			103471	>16 µg/mL
O=C1NC(=S)N/C1=C/c1cccc(Cl)c1		EC50	BACTEC		H37Rv	<6.25 µg/mL
Nc1sc2c(c1C(=O)O)CCCC2		MIC	resazurin		H37Rv	507 µM
CCCC(=O)OCc1cc(=O)n(C)c2c3c4c(cc12)c(C)cc(=O)n4CO3		MIC			CS-R	0.4 µg/mL
CCOc1ccc2cc(-n3nncc3COc3nc(-c4ccncc4)sc3C(=O)O)c(=O)oc2c1		MIC	resazurin		H37Rv	25.43 µM
COc1cc(C=O)cc([N+](=O)[O-])c1Cc1cc(C=O)cc(OC)c1OC		MIC			H37Rv	125–250 µg/mL
N#CCCN(CCC#N)c1ccc(/C=C2/N=C(c3cc([N+](=O)[O-])ccc3Cl)OC2=O)cc1		MIC bound	BACTEC		H37Rv	>12.5 µg/mL
CCOC(=O)Nc1cc(NCc2ccccc2)c(N)c(N)n1		EC50			H37Rv	>12.5 µg/mL
COc1ccccc1NC(=O)/C(=C\n1c(=S)[nH]c2ccc([N+](=O)[O-])cc21)C(C)=O	6.25 µg/mL	inhibition	resazurin		H37Rv	-26%
CCOC(=O)c1cc(-c2ccccc2)sc1N		MIC	resazurin		H37Rv	>400 µM
C=C(C)[C@@H]1CC[C@]2(C)CCC3(C)[C@H](CC[C@@H]4[C@@]5(C)CC[C@H](O)C(C)(C)[C@@H]5CC[C@]43C)[C@@H]12		MIC bound	BACTEC		H37Rv	≤12.5 µg/mL
C(=C\c1ccccc1)/CCNc1ccc(N2CCSCC2)cc1		MIC			103471	8 µg/mL
O=C1NC(N2CCN(c3ccccc3)CC2)=NC2CCCCC12		MIC bound	resazurin		H37Rv	>6.25 µg/mL
O=C(Nc1ccccc1N1CCSCC1)c1ccc(-c2ccccc2)cc1		MIC			103471	>16 µg/mL
Cc1cc(=O)c2c([nH]1)c1c(c3[nH]c(C)cc(=O)c32)Oc2ccccc2O1		MIC			TAC-R	1.6 µg/mL
CCOC(=O)Nc1cc2ncc(C)nc2c(NC(=O)OCC)n1		EC50			H37Rv	>12.5 µg/mL
Nc1ccc(C(=O)O)c(O)c1		EC50	agar		35 strains	<10 µg/mL
O=C1CN(c2ccccc2)C(=O)CN1/N=C/c1ccco1	12.5 µg/mL	inhibition	BACTEC		H37Rv	0%
COc1nc2ccc(Br)cc2cc1C(c1ccccc1)C(O)(CCN1CCCCC1)c1ccccc1		MIC90			H37Rv	8.65 µg/mL
COc1cccc2c1C(=O)c1c(O)c3c(c(O)c1C2=O)C[C@@](O)(/C(C)=N/NC(=O)c1ccc(Cl)cc1)C[C@H]3O[C@H]1C[C@H](N)[C@H](O)[C@H](C)O1		MIC			CS-R	6.3 µg/mL
CC(=C\c1ccccc1)/C=C1/NC(=S)NC1=O	6.25 µg/mL	inhibition	BACTEC		H37Rv	95%
C/C(=N\NC(=O)c1cccnc1)c1cccc(/C(C)=N/NC(=O)c2cccnc2)n1	12.5 µg/mL	inhibition	BACTEC		H37Rv	95%
N[C@@H]1CONC1=O		EC50	agar		592 strains	<30 µg/mL
CCOC(=O)Nc1cc(N[C@@H](C)[C@H](O)c2ccccc2)c([N+](=O)[O-])c(N)n1	12.5 µg/mL	inhibition			H37Rv	0%
CCOC(=O)CCNC(CC(=O)OCC)[C@H]1O[C@@H]2OC(C)(C)O[C@@H]2[C@H]1OCc1ccccc1		MIC			H37Rv	50 µg/mL
CCOc1ccc2cc(-n3nncc3COc3nc(-c4ccccn4)sc3C(=O)OC)c(=O)oc2c1		MIC	resazurin		H37Rv	12.72 µM
O=C1NC(=S)NC1=C1CCCCC1	6.25 µg/mL	inhibition	BACTEC		H37Rv	0%
CCOC(=O)Nc1cc(Cl)c([N+](=O)[O-])c(N)n1		EC50			H37Rv	>12.5 µg/mL
Nc1cccc(C(=O)Nc2ccc3c(O)c(N=Nc4ccc(N=Nc5ccc(S(=O)(=O)O)cc5)cc4)c(S(=O)(=O)O)cc3c2)c1		MIC bound	BACTEC		H37Rv	>12.5 µg/mL
CN[C@@H]1[C@H](O[C@H]2[C@H](O[C@H]3[C@H](O)[C@@H](O)[C@H](N=C(N)N)[C@@H](O)[C@@H]3N=C(N)N)O[C@@H](C)[C@]2(O)C=O)O[C@@H](CO)[C@H](O)[C@H]1O		MIC	resazurin		ATCC 25177	48 µg/mL
O=C1NC(=S)N/C1=C/c1cccc(F)c1	6.25 µg/mL	inhibition	BACTEC		H37Rv	73%
CCOC(=O)c1c(NC(=O)c2c(F)c(F)c(F)c(F)c2F)sc2c1CCN(CC)C2		MIC	resazurin	Rifampicin-resistant S522L	H37Rv	0.3 µM
CCC1CN(c2c(F)cc3c(=O)c(C(=O)O)cn(C4CC4)c3c2OC)CCN1		MIC			TN565 (D94H)	0.7 µg/mL
O=C1NC(=S)N/C1=C/c1cccc(Br)c1	6.25 µg/mL	inhibition	BACTEC		H37Rv	85%
CCOC(=O)c1c(N)sc2c1CCN(C(=O)OCc1ccccc1)C2		MIC	resazurin		H37Rv	>200 µM
COCCOc1nc2ccc(Br)cc2cc1C(c1ccccc1)C(O)(CCN(C)C)c1cccc2ccccc12		MIC90			H37Rv	9.5 µg/mL
c1ccc(-c2ccc(CNc3cccc(N4CCOCC4)c3)cc2)cc1		MIC			103471	8 µg/mL
O=C(Nc1ccc(Cl)cc1)Nc1ccc(Cl)c(C(F)(F)F)c1	12.5 µg/mL	inhibition	BACTEC		H37Rv	98%
COC(=O)c1sc(-c2ccccc2)nc1OCc1cnnn1-c1cc2ccc(O)cc2oc1=O		MIC	resazurin		H37Rv	26.23 µM
CC=CCOc1cc(NC(=S)OC(C)C)ccc1Cl		MIC bound	resazurin		H37Rv	>6.25 µg/mL
CC(=O)Oc1ccccc1Oc1ccccc1[N+](=O)[O-]		MIC			H37Rv	15.6–62.5 µg/mL

A second listing of 8 rows from above:

| compound | dose | measure | read by | mutations | strain | value |
|---|---|---|---|---|---|---|
| O=C(Nc1ccc(Cl)cc1)Nc1ccc(Cl)c(C(F)(F)F)c1 | 12.5 µg/mL | inhibition | BACTEC |  | H37Rv | 98% |
| c1ccc(-c2ccc(CNc3cccc(N4CCOCC4)c3)cc2)cc1 |  | MIC |  |  | 103471 | 8 µg/mL |
| CC(=C\c1ccccc1)/C=C1/NC(=S)NC1=O | 6.25 µg/mL | inhibition | BACTEC |  | H37Rv | 95% |
| O=C1NC(=NCc2ccc(F)cc2)N/C1=C\c1c(Cl)cccc1Cl |  | MIC |  |  | H37Rv | >12.5 µg/mL |
| CO[C@@H]1[C@H]2OC(C)(C)O[C@H]2O[C@@H]1C(N)CC(=O)O |  | MIC |  |  | H37Rv | 50 µg/mL |
| CO[C@H]1/C=C/O[C@@]2(C)Oc3c(C)c(O)c4c(O)c(c(/C=N/N5CCN(C)CC5)c(O)c4c3C2=O)NC(=O)/C(C)=C\C=C\[C@H](C)[C@H](O)[C@@H](C)[C@@H](O)[C@@H](C)[C@H](OC(C)=O)[C@@H]1C |  | MIC | low oxygen |  | H37Rv | 0.048 µM |
| C=C(C)[C@@H]1CC[C@]2(C)CCC3(C)[C@H](CC[C@@H]4[C@@]5(C)CC[C@H](O)C(C)(C)[C@@H]5CC[C@]43C)[C@@H]12 |  | MIC bound | BACTEC |  | H37Rv | ≤12.5 µg/mL |
| N#CCC(=O)N/N=C(\CC1(O)C(=O)Nc2c(Cl)cc(Cl)cc21)c1ccccc1 | 12.5 µg/mL | inhibition | BACTEC |  | H37Rv | -10% |

a–b is a range or a potency band. Percent inhibition refers to the dose given; in toxicity tests it is the harm to the cells. MIC bound comes from a single tested concentration. ECn: concentration that inhibits the pathogen or its effect by n%. Conditions beyond the fields shown may differ between rows. A number after MIC or MFC names an inhibition level or a share of isolates.